Taken from: PubChem BioAssay AID624099 (ICCB-Longwood, 2012)

Test: 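Knock-downs relieving repression by E2 of an HPV18 LCR luciferase reporter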 (primary screen)
Cells: human C33A cervical carcinoma cells (HPV-negative) stably expressing BPV1 E2 and an HPV18 LCR luciferase reporter
Reagents: siRNA pool against human genes, 40 nM
Duration: 72 h
Read-out: 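Per-well luciferase luminescence, z-scored on each plate against the plate mean and SD with control wells left out, then averaged across three replicate plates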
Direction: mean z-score and z-score: higher = stronger reporter signal, weaker E2 silencing
Hit rule: 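Hit if mean z-score reaches 2 and two or more of three replicate z-scores also reach 2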
Shown is one part, drawn at random, of about 21,000 deposited reagents. Of all reagents, 497 (2.4%) got an active call. 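Higher z means weaker E2 silencing; only reporter increases were scored, and knock-downs that hurt cell survival may mask genuine repressor factors.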 No sequences are given here.

gene,PubChem SID,mean z-score,"z-score, replicate A","z-score, replicate B","z-score, replicate C",Call
KPTN,SID134323522,-0.78,-0.6,-0.85,-0.88,inactive
EPHX4,SID134310825,1.12,0.99,1.25,1.13,inactive
CD40,SID134313027,-0.74,-0.73,-0.64,-0.86,inactive
DIDO1,SID134310453,2.31,1.95,2.51,2.49,active
DIDO1,SID134320802,-0.05,-0.01,-0.32,0.19,inactive
MLF1,SID134323263,-0.71,-0.69,-0.79,-0.65,inactive
IL5RA,SID134312926,0.13,0.15,0.14,0.09,inactive
TBX1,SID134316484,1.27,1.17,1.42,1.22,inactive
LBP,SID134314761,0.89,1,0.82,0.84,inactive
IL15,SID134312869,0.21,0.4,0.25,-0.02,inactive
PGD,SID134313248,-0.49,-0.87,-0.2,-0.4,inactive
OR5K2,SID134329876,-0.03,0.14,-0.09,-0.13,inactive
HNRNPDL,SID134316367,0.93,0.94,1,0.85,inactive
G2E3,SID134312137,-0.11,0.13,-0.31,-0.13,inactive
CYP4Z1,SID134313953,0.13,0.29,0.25,-0.16,inactive
ESS2,SID134316590,-0.94,-1.03,-0.85,-0.95,inactive
NOB1,SID134324274,-0.2,-0.19,-0.17,-0.24,inactive
URM1,SID134318782,0.34,0.18,0.41,0.43,inactive
RPL34-DT,SID134322693,-1.95,-2.32,-1.75,-1.78,inactive
LOC390683 (retired record),SID134328653,0.46,0.53,0.35,0.49,inactive
CNTFR,SID134312794,0.37,0.52,0.53,0.07,inactive
CIAO2B,SID134324058,-0.57,-0.27,-0.77,-0.68,inactive
SRP68,SID134310754,-0.48,-0.51,-0.45,-0.48,inactive

Quoted from above, 4 entries:
gene,PubChem SID,mean z-score,"z-score, replicate A","z-score, replicate B","z-score, replicate C",Call
CD40,SID134313027,-0.74,-0.73,-0.64,-0.86,inactive
DIDO1,SID134310453,2.31,1.95,2.51,2.49,active
DIDO1,SID134320802,-0.05,-0.01,-0.32,0.19,inactive
MLF1,SID134323263,-0.71,-0.69,-0.79,-0.65,inactive
